Measured values from several laboratories, pooled; numbers as filed in NIAID ChemDB.

All rows: target-level tests; species: HIV-1; protein: Protease

Conditions beyond the fields shown may differ between rows. ICn: concentration for n% inhibition. An empty or dashed field is not shown. Two numbers with a dash give a range or band.

smiles,strain,setting,mutations,read by,read-out,value
O=C(N[C@@H](Cc1ccccc1)[C@H](Cc1ccccc1)n1cc(CN2CCN(c3cccc(O)c3)CC2)nn1)OC1CCCC1,-,-,-,fluorescence,IC50,<5 µM
CC(C)(C)OC(=O)N[C@@H](Cc1ccccc1)[C@@H](O)C[C@@H](Cc1ccccc1)C(=O)N[C@@H](CCC(N)=O)C(=O)N[C@@H](Cc1ccccc1)C(N)=O,-,-,-,absorbance,Ki,0.00002 µM
O=C1N(Cc2cccc(-c3cn[nH]n3)c2)[C@H](Cc2ccccc2)[C@H](O)[C@@H](O)[C@@H](Cc2ccccc2)N1Cc1cccc(-c2cn[nH]n2)c1,RF,-,-,fluorescence,Ki,0.00017 µM
O=C(N[C@@H](Cc1ccccc1)[C@H](Cc1ccccc1)n1cc(CN2CC=C(c3ccc(Cl)cc3)CC2)nn1)OC1CCCC1,-,-,-,fluorescence,IC50,<5 µM
Cc1c(O)cccc1C(=O)N[C@@H](Cc1ccccc1)[C@H](O)C(=O)N1CSC(C)(C)[C@H]1C(=O)NCc1cccnc1,-,-,-,HPLC,IC50,<0.05 µM
O=C1N(Cc2cccc(-c3cn[nH]c3)c2)[C@H](Cc2ccccc2)[C@H](O)[C@@H](O)[C@@H](Cc2ccccc2)N1Cc1cccc(-c2cn[nH]c2)c1,RF,-,-,fluorescence,Ki,0.00062 µM
CC(C)[C@H](NC(=O)N(C)Cc1ccccn1)C(=O)N[C@@H](Cc1ccccc1)[C@H](O)[C@H](O)[C@H](Cc1ccccc1)NC(=O)[C@@H](NC(=O)N(C)Cc1ccccn1)C(C)C,-,-,PR-A71T V82A,HPLC,IC50,0.0049 µM
CNC(=O)[C@@H](NC(=O)[C@H](Sc1ccccc1F)[C@H](O)[C@@H](O)[C@@H](Sc1ccccc1F)C(=O)N[C@H](C(=O)NC)C(C)C)C(C)C,-,-,-,fluorescence,Ki,0.0036 µM
O=C1N(Cc2cccc(-c3nn[nH]n3)c2)[C@H](Cc2ccccc2)[C@H](O)[C@@H](O)[C@@H](Cc2ccccc2)N1Cc1cccc(-c2nn[nH]n2)c1,RF,-,-,fluorescence,Ki,0.0066 µM
O=C1c2ccccc2C(=O)c2c(O)c(O)cc(O)c21,-,-,-,fluorescence,IC50,100 µM
CC(C)C[C@H](NC(=O)[C@@H](NC(=O)CCCCCCCCCCCCCCC(=O)N[C@@H](CC(N)=O)C(=O)N[C@@H](Cc1ccccc1)C(=O)O)C(C)O)C(=O)N[C@@H](Cc1ccccc1)C(N)=O,-,-,-,-,Ki,3 µM
CC(C)[C@H](NC(=O)N(C)Cc1ccccn1)C(=O)N[C@@H](Cc1ccccc1)[C@H](O)[C@@H](O)[C@H](Cc1ccccc1)NC(=O)[C@@H](NC(=O)N(C)Cc1ccccn1)C(C)C,-,-,PR-R8Q,fluorescence,Ki,0.0072 µM
O=C1c2cccc(O)c2C(=O)c2c(O)cccc21,-,-,-,fluorescence,IC50,110 µM
O=C1N(Cc2ccc(CO)cc2)[C@H](COc2ccccc2)[C@H](O)[C@@H](O)[C@@H](COc2ccccc2)N1Cc1ccc(CO)cc1,IIIB,-,PR-L10F I84V PR-L90M,fluorescence,Ki,0.00017 µM
COC(=O)c1cccc(CN2C(=O)N(Cc3cccc(-c4ccn[nH]4)c3)[C@H](Cc3ccccc3)[C@H](O)[C@@H](O)[C@H]2Cc2ccccc2)c1,RF,-,-,fluorescence,Ki,0.00014 µM
O=c1oc(-c2ccccc2)cc(O)c1C(SC1CCCC1)C1CCCC1,-,pH 6.2,-,HPLC,IC50,0.2 µM
O=C(N[C@@H](Cc1ccccc1)[C@H](Cc1ccccc1)n1cc(CN2CCC(n3c(=O)[nH]c4ccccc43)CC2)nn1)OC1CCCC1,-,-,-,fluorescence,IC50,>5 µM
CC(C)(C)OC(=O)N[C@@H](Cc1ccccc1)[C@@H](O)C[C@@H](Cc1ccccc1)C(=O)N[C@@H](CCC(=O)O)C(=O)N[C@@H](Cc1ccccc1)C(N)=O,-,-,-,absorbance,Ki,0.00002 µM
Cc1cc(C)c(CNC(=O)[C@H]2N(C(=O)[C@@H](O)[C@H](Cc3ccccc3)NC(=O)COc3c(C)cccc3C)CSC2(C)C)c(=O)[nH]1,-,-,-,HPLC,IC50,>0.05 µM
[O]=[V]([O-])([O-])[O-],-,-,-,fluorescence,IC50,1–20 µM
CSC[C@H](NC(=O)COc1cccc2cnccc12)C(=O)N[C@@H](Cc1ccccc1)[C@H](O)C(=O)N1CSC(C)(C)[C@H]1C(=O)NC(C)(C)C,-,-,-,HPLC,Ki,0.000088 µM
O=C1C(O)=C(O)C(=O)C(O)=C1O,-,-,-,fluorescence,IC50,575 µM
CC(C)(C)OC(=O)N[C@@H](Cc1ccccc1)[C@H](O)CNC[C@@H](O)[C@H](Cc1ccccc1)NC(=O)OC(C)(C)C,-,-,-,substrate cleavage,IC50,0.136 µM
O=C(N[C@@H](Cc1ccccc1)[C@H](Cc1ccccc1)n1cc(CN2CCN(C(=O)OCc3ccccc3)CC2)nn1)OC1CCCC1,-,-,-,fluorescence,IC50,>5 µM
CC(C)(C)OC(=O)N[C@@H](Cc1ccccc1)[C@@H](O)C[C@@H](Cc1ccc(OCCN2CCOCC2)cc1)C(=O)N[C@H]1c2ccccc2C[C@H]1O,-,-,PR-R8Q,fluorescence,Ki,0.00014 µM
CC[C@H](C)[C@H](NC(=O)[C@@H]1CCCN1C(=O)[C@H](O)[C@H](Cc1ccccc1)NC(=O)[C@H](CC(N)=O)NC(=O)CCc1ccccc1)C(=O)N[C@H](C(N)=O)C(C)C,-,-,-,HPLC,IC50,0.468 µM
O=C1N(Cc2cccc(/C=N/O)c2)[C@H](Cc2ccccc2)[C@H](O)[C@@H](O)[C@@H](Cc2ccccc2)N1Cc1cccc(/C=N/O)c1,RF,-,-,-,Ki,0.00001 µM
Cc1c(O)cccc1C(=O)N[C@@H](Cc1ccccc1)[C@H](O)C(=O)N1CSC(C)(C)[C@H]1C(=O)NC1C2CC3CC(C2)CC1C3,-,-,-,HPLC,IC50,>0.05 µM
O=C1N(Cc2cccc(-c3ncc[nH]3)c2)[C@H](Cc2ccccc2)[C@H](O)[C@@H](O)[C@@H](Cc2ccccc2)N1Cc1cccc(-c2ncc[nH]2)c1,RF,-,-,fluorescence,Ki,0.00016 µM
CC[C@H](NC(=O)COc1cccc(N(C)C)c1)C(=O)N[C@@H](Cc1ccccc1)[C@H](O)C(=O)N1CSC(C)(C)[C@H]1C(=O)NC(C)(C)C,-,-,-,HPLC,Ki,0.000399 µM
O=c1oc(-c2ccccc2)cc(O)c1C(CC1CC1)SC1CCCCC1,-,pH 6.2,-,HPLC,IC50,0.36 µM
O=C1C=C(O)c2ccccc2C1=O,-,-,-,fluorescence,IC50,>100 µM
CC(C)(C)OC(=O)N[C@H](CCN[C@@H](Cc1ccccc1)C(=O)N[C@@H](CCC(=O)O)C(=O)N[C@@H](Cc1ccccc1)C(N)=O)Cc1ccccc1,-,-,-,absorbance,Ki,0.00005 µM
Cc1ccc(Nc2cccc3c2C(=O)c2cccc(Nc4ccc(C)cc4S(=O)(=O)O)c2C3=O)c(S(=O)(=O)O)c1,-,-,-,fluorescence,IC50,20 µM
Cc1ccc(Cl)cc1N1CCN(Cc2cn([C@@H](Cc3ccccc3)[C@H](Cc3ccccc3)NC(=O)C3CCCCC3)nn2)CC1,-,-,-,fluorescence,IC50,>5 µM
Cc1cccc(C)c1OCC(=O)N[C@@H](Cc1ccccc1)[C@H](O)C(=O)N1CSC(C)(C)[C@H]1C(=O)NCc1ccccn1,-,-,-,HPLC,IC50,<0.05 µM
CC(C)(C)c1ccccc1SC1=C(O)CC(CCc2ccccc2)(c2ccccc2)OC1=O,-,pH 4.7,-,HPLC,IC50,0.0036 µM
CC[C@H](C)[C@H](NC(=O)[C@@H]1CCCN1C(=O)[C@H](O)[C@H](Cc1ccccc1)NC(=O)[C@H](CC(N)=O)NC(=O)[C@H](Cc1ccccc1)NC(=O)[C@@H](N)CO)C(=O)N[C@H](C(N)=O)C(C)C,-,-,-,HPLC,IC50,0.005 µM
CC(C)(C)OC(=O)N[C@@H](Cc1ccccc1)[C@H](O)CNC[C@@H](O)[C@H](Cc1ccc(OCC(=O)N2CCOCC2)cc1)NC(=O)OC(C)(C)C,-,-,PR-V82A,HPLC,IC50,1.08 µM
O=C1C=CC(=O)c2c(O)cccc21,-,-,-,fluorescence,IC50,265 µM
CC(C)(C)OC(=O)N[C@@H](Cc1ccccc1)[C@H](O)C[C@H](Cc1ccccc1)C(=O)N[C@@H](CCC(=O)O)C(=O)N[C@@H](Cc1ccccc1)C(N)=O,-,-,-,absorbance,Ki,0.00022 µM
Cc1c(Cl)cccc1N1CCN(Cc2cn([C@@H](Cc3ccccc3)[C@H](Cc3ccccc3)NC(=O)OC3CCCC3)nn2)CC1,-,-,-,fluorescence,IC50,<5 µM
O=Cc1cccc(CN2C(=O)N(Cc3cccc(C=O)c3)[C@H](Cc3ccccc3)[C@H](O)[C@@H](O)[C@H]2Cc2ccccc2)c1,RF,-,-,fluorescence,Ki,0.00044 µM
O=C1c2ccc(O)c(O)c2C(=O)c2c(O)ccc(O)c21,-,-,-,fluorescence,IC50,35 µM
O=C(N[C@@H](Cc1ccccc1)[C@H](Cc1ccccc1)n1cc(CN2CCCC(c3ccccc3)C2)nn1)OC1CCCC1,-,-,-,fluorescence,IC50,>5 µM

A second listing of 3 rows from above:

smiles,strain,setting,mutations,read by,read-out,value
CC(C)(C)OC(=O)N[C@@H](Cc1ccccc1)[C@H](O)CNC[C@@H](O)[C@H](Cc1ccc(OCC(=O)N2CCOCC2)cc1)NC(=O)OC(C)(C)C,-,-,PR-V82A,HPLC,IC50,1.08 µM
CSC[C@H](NC(=O)COc1cccc2cnccc12)C(=O)N[C@@H](Cc1ccccc1)[C@H](O)C(=O)N1CSC(C)(C)[C@H]1C(=O)NC(C)(C)C,-,-,-,HPLC,Ki,0.000088 µM
Cc1ccc(Nc2cccc3c2C(=O)c2cccc(Nc4ccc(C)cc4S(=O)(=O)O)c2C3=O)c(S(=O)(=O)O)c1,-,-,-,fluorescence,IC50,20 µM